{"source": "PubChem BioAssay AID651610", "about": "(Broad Institute, 2012)", "note": "This is a selection; strong and weak results do not stand in their true shares. Calls of active or inactive are those of the source.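 How the source made its calls: active means mean replicate inhibition score of at least 50 and every replicate individually at or above 50; inconclusive means only one of the two criteria met; inactive means mean below 50 and not all replicates reaching 50.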"}
{"experiment": "inhibitors of HIV-1 Env-driven cell-cell fusion, primary screen, HeLa-JRFL effector, CEM21 target cells, luciferase (AID 651610);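 further: 0% = plate neutral controls and 100% = maraviroc near 300 nM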", "settings": "at 12.3 µM, active compounds read high"}
{"compound": "CCCCn1nnnc1C(c1ccccc1)N1CCC(n2c(=O)[nH]c3ccccc32)CC1", "note": "(centres undefined)", "inhibition": "inactive: 1.88%"}
{"compound": "O=c1[nH]c2ccccc2n1C1CCN(C(c2cccs2)c2nnnn2C2CCCCC2)CC1", "note": "(centres undefined)", "inhibition": "inactive: -220%"}
{"compound": "O=c1[nH]c2ccccc2n1C1CCN(C(c2ccnc3ccccc23)c2nnnn2C2CCCC2)CC1", "note": "(centres undefined)", "inhibition": "inactive: -4.34%"}
{"compound": "COc1ccc(C(=O)NCC2(N3CCOCC3)CCCCC2)cc1OC", "inhibition": "inactive: 2.64%"}
{"compound": "COc1cccc(C(c2nnnn2C(C)(C)C)N2CCC(n3c(=O)[nH]c4ccccc43)CC2)c1OC", "note": "(centres undefined)", "inhibition": "inactive: 6.14%"}
{"compound": "CCOC(=O)N1CCC(Nc2ccc(C)cc2)CC1", "inhibition": "inactive: -7.09%"}
{"compound": "O=c1[nH]c2ccccc2n1C1CCN(C(c2cccs2)c2nnnn2C2CCCC2)CC1", "note": "(centres undefined)", "inhibition": "inactive: -25.1%"}
{"compound": "O=C(OC1CN2CCC1CC2)C1c2ccccc2C=Cc2ccccc21", "note": "(centres undefined)", "inhibition": "inactive: -7.22%"}
{"compound": "CCCCn1nnnc1C(c1cccc(OC)c1OC)N1CCC(n2c(=O)[nH]c3ccccc32)CC1", "note": "(centres undefined)", "inhibition": "inactive: -26.9%"}
{"compound": "N#Cc1ccc(C(=O)NCC2(N3CCCCC3)CCCCC2)cc1", "inhibition": "inactive: 12.4%"}
{"compound": "CC(C)(C)OC(=O)N1CCC(N(C(=O)c2ccccc2)c2ccc(Cl)cc2)CC1", "inhibition": "inactive: 0.733%"}
{"compound": "CN(C)C1(CNC(=O)c2cccc(C#N)c2)CCCCC1", "inhibition": "inactive: 2.61%"}
{"compound": "Cc1cc(N(CCCl)CCCl)ccc1C=O", "inhibition": "inactive: 35.8%"}
{"compound": "O=c1[nH]c2ccccc2n1C1CCN(C(c2ccccc2)c2nnnn2C2CCCC2)CC1", "note": "(centres undefined)", "inhibition": "inactive: -33.6%"}
{"compound": "CCCN1CCC(Nc2cc(OC)cc(OC)c2)CC1", "inhibition": "inactive: -24.9%"}
{"compound": "c1ccc(CN2CCC(Nc3ccccc3)CC2)cc1", "inhibition": "inactive: -22%"}
{"compound": "C/C(N)=N\\P(=O)(Oc1ccccc1)Oc1ccccc1", "inhibition": "inactive: 2.82%"}
{"compound": "CC(C)(C)n1nnnc1C(c1cccc2ccccc12)N1CCC(n2c(=O)[nH]c3ccccc32)CC1", "note": "(centres undefined)", "inhibition": "inactive: 3.22%"}
{"compound": "CCC(c1nnnn1C1CCCCC1)N1CCC(n2c(=O)[nH]c3ccccc32)CC1", "note": "(centres undefined)", "inhibition": "inactive: -4.19%"}
{"compound": "CC(=O)N(c1ccccc1)C1CCNCC1", "inhibition": "inactive: 0.4%"}
{"compound": "COc1cccc(C(c2nnnn2C2CCCCC2)N2CCC(n3c(=O)[nH]c4ccccc43)CC2)c1OC", "note": "(centres undefined)", "inhibition": "inactive: 38.9%"}
{"compound": "O=c1[nH]c2ccccc2n1C1CCN(C(c2ccnc3ccccc23)c2nnnn2C2CCCCC2)CC1", "note": "(centres undefined)", "inhibition": "inactive: -14.3%"}
{"compound": "COc1cc(OC)cc(C(=O)NCC2(N3CCCCC3)CCCCC2)c1", "inhibition": "inactive: 3.06%"}
{"compound": "Cc1ccc(C(=O)NCC2(N3CCCCC3)CCCCC2)o1", "inhibition": "inactive: -1.43%"}
{"compound": "Cc1ccc(NC2(C#N)CCN(Cc3ccccc3)CC2)cc1", "inhibition": "inactive: -7.78%"}
{"compound": "CC(C)(C)n1nnnc1C(c1ccnc2ccccc12)N1CCC(n2c(=O)[nH]c3ccccc32)CC1", "note": "(centres undefined)", "inhibition": "inactive: -31.7%"}
{"compound": "CCN1CCC(Nc2cccc(F)c2)CC1", "inhibition": "inactive: -7.41%"}
{"compound": "COc1ccc(C(c2nnnn2C2CCCCC2)N2CCC(n3c(=O)[nH]c4ccccc43)CC2)cc1", "note": "(centres undefined)", "inhibition": "inactive: -30.6%"}
{"compound": "Cn1c(=O)[nH]cc(N(CCCl)CCCl)c1=O", "inhibition": "inactive: 21.8%"}
{"compound": "CN(C)c1ccc(C(=O)NCC2(N3CCCCC3)CCCCC2)cc1", "inhibition": "inactive: 15.7%"}
{"compound": "CN1CCC(Nc2ccc(F)c(Cl)c2)CC1", "inhibition": "inactive: 11.7%"}
{"compound": "CCOc1ncccc1C(=O)NCC1(N2CCOCC2)CCCCC1", "inhibition": "inactive: -24.7%"}
{"compound": "NN(c1ccccc1)C1CCN(CCc2ccccc2)CC1", "inhibition": "inactive: 11.7%"}
{"compound": "O=C(O)C1(Nc2ccccc2)CCN(Cc2ccccc2)CC1", "inhibition": "inactive: -12.6%"}
{"compound": "CC(C)(C)OC(=O)N1CCC(Nc2ccccc2)CC1", "inhibition": "inactive: 12%"}
{"compound": "CCCOc1ccc(C(=O)NCC2(N(C)C)CCCCC2)cc1", "inhibition": "inactive: 6.42%"}
{"compound": "O=c1[nH]c2ccccc2n1C1CCN(C(c2cc3ccccc3o2)c2nnnn2C2CCCC2)CC1", "note": "(centres undefined)", "inhibition": "inactive: -9.23%"}
{"compound": "COc1cccc(C(=O)N(c2cc(C)cc(C)c2)C2CCN(C(=O)OC(C)(C)C)CC2)c1", "inhibition": "inactive: 23.2%"}
{"compound": "COc1cccc(C(c2nnnn2C2CCCC2)N2CCC(n3c(=O)[nH]c4ccccc43)CC2)c1OC", "note": "(centres undefined)", "inhibition": "inactive: -53.9%"}
{"compound": "COc1cc(OC)cc(C(=O)NCC2(N3CCOCC3)CCCCC2)c1", "inhibition": "inactive: 11%"}
{"compound": "CN1CCC(Nc2ccc(Cl)cc2)CC1", "inhibition": "inactive: -21.8%"}
{"compound": "CC(C)(C)OC(=O)N1CCC(N(C(=O)c2ccccc2)c2ccc(F)cc2)CC1", "inhibition": "inactive: -2.61%"}
{"compound": "COc1ccc(C(=O)NCC2(N3CCCCC3)CCCCC2)c(OC)c1OC", "inhibition": "inactive: -14.9%"}
{"compound": "COc1ccc(C(=O)NCC2(N3CCCCC3)CCCCC2)cc1", "inhibition": "inactive: 3.08%"}
{"compound": "O=C(NCC1(N2CCCCC2)CCCCC1)c1cccs1", "inhibition": "inactive: -7.65%"}
{"compound": "CCCCn1nnnc1C(CC)N1CCC(n2c(=O)[nH]c3ccccc32)CC1", "note": "(centres undefined)", "inhibition": "inactive: 25.2%"}
{"compound": "O=C(NCC1(N2CCCCC2)CCCCC1)c1ccc(=O)[nH]c1", "inhibition": "inactive: 0.229%"}
{"compound": "Cc1cccc(NC2(C#N)CCN(Cc3ccccc3)CC2)c1", "inhibition": "inactive: -6.09%"}
{"compound": "CSc1ccccc1C(=O)NCC1(N2CCCCC2)CCCCC1", "inhibition": "inactive: 12.2%"}
{"compound": "Cc1cc(C)cc(N(C(=O)c2ccccc2)C2CCN(C(=O)OC(C)(C)C)CC2)c1", "inhibition": "inactive: -27.4%"}
{"compound": "O=c1[nH]c2ccccc2n1C1CCN(C(c2ccccc2OC(F)(F)F)c2nnnn2C2CCCCC2)CC1", "note": "(centres undefined)", "inhibition": "inactive: -68.4%"}
{"compound": "O=C(NCC1(N2CCCCC2)CCCCC1)c1ccc(Cl)nc1", "inhibition": "inactive: -9.9%"}
{"compound": "O=c1[nH]c2ccccc2n1C1CCN(C(c2cc3ccccc3o2)c2nnnn2C2CCCCC2)CC1", "note": "(centres undefined)", "inhibition": "inactive: -40.3%"}
{"compound": "N#CC1(Nc2ccccc2)CCN(Cc2ccccc2)CC1", "inhibition": "inactive: 14.6%"}
{"compound": "O=C(NCC1(N2CCCCC2)CCCCC1)c1ccc(Cl)s1", "inhibition": "inactive: 11.4%"}
{"compound": "CCCCn1nnnc1C(c1ccc(OC)cc1)N1CCC(n2c(=O)[nH]c3ccccc32)CC1", "note": "(centres undefined)", "inhibition": "inactive: -0.616%"}
{"compound": "CCOC(=O)N1CCC(Nc2ccc(OC)cc2)CC1", "inhibition": "inactive: 12%"}
{"compound": "CC(C)(C)n1nnnc1C(c1ccccc1)N1CCC(n2c(=O)[nH]c3ccccc32)CC1", "note": "(centres undefined)", "inhibition": "inactive: -2.03%"}
{"compound": "CCOc1ccc(C)cc1CN(CCCl)CCCl", "inhibition": "inactive: 1.87%"}
{"compound": "CCOC(=O)N1CCC(Nc2ccc(F)cc2)CC1", "inhibition": "inactive: -25.7%"}
{"compound": "COc1ccc(NC2CCN(CCc3ccccc3)CC2)c(OC)c1", "inhibition": "inactive: 14.4%"}
{"compound": "O=C(NCC1(N2CCCCC2)CCCCC1)c1ccc(F)cc1", "inhibition": "inactive: 16.7%"}
{"compound": "CCCCOc1ccc(C(=O)NCC2(N3CCOCC3)CCCCC2)cc1", "inhibition": "inactive: 4.29%"}
{"compound": "CCCCn1nnnc1C(c1cc2ccccc2o1)N1CCC(n2c(=O)[nH]c3ccccc32)CC1", "note": "(centres undefined)", "inhibition": "inactive: -25.9%"}
{"compound": "O=c1[nH]c2ccccc2n1C1CCN(C(c2ccccc2)c2nnnn2C2CCCCC2)CC1", "note": "(centres undefined)", "inhibition": "inactive: -50.6%"}
{"compound": "COc1cc(C(=O)NCC2(N(C)C)CCCCC2)ccc1OC(F)F", "inhibition": "inactive: -4.22%"}
{"compound": "CCOC(=O)N1CCC(Nc2cccc(C)c2)CC1", "inhibition": "inactive: -48%"}
{"compound": "O=c1[nH]c2ccccc2n1C1CCN(C(c2cccc3ccccc23)c2nnnn2C2CCCC2)CC1", "note": "(centres undefined)", "inhibition": "inactive: -257%"}
{"compound": "O=C(NCC1(N2CCCCC2)CCCCC1)c1ccc(OC(F)F)cc1", "inhibition": "inactive: 6.29%"}
{"compound": "CC(C)(C)n1nnnc1C(c1ccccc1OC(F)(F)F)N1CCC(n2c(=O)[nH]c3ccccc32)CC1", "note": "(centres undefined)", "inhibition": "inactive: -112%"}
{"compound": "O=c1[nH]c2ccccc2n1C1CCN(C(c2ccccc2OC(F)(F)F)c2nnnn2C2CCCC2)CC1", "note": "(centres undefined)", "inhibition": "inactive: -20%"}
{"compound": "CCN1CCC(Nc2ccc(Cl)cc2)CC1", "inhibition": "inactive: -17.4%"}
{"compound": "CSc1ccc(C(=O)NCC2(N3CCOCC3)CCCCC2)cc1", "inhibition": "inactive: 12.5%"}
{"compound": "O=C(NCC1(N2CCCCC2)CCCCC1)c1cccc([N+](=O)[O-])c1", "inhibition": "inactive: -0.742%"}
{"compound": "O=C(NCC1(N2CCCCC2)CCCCC1)c1cccc(C(F)(F)F)c1", "inhibition": "inactive: 3.19%"}
{"compound": "COc1cc(C(=O)NCC2(N3CCCCC3)CCCCC2)ccc1OC(F)F", "inhibition": "inactive: 8.78%"}
{"compound": "CCCCn1nnnc1C(c1cccc2ccccc12)N1CCC(n2c(=O)[nH]c3ccccc32)CC1", "note": "(centres undefined)", "inhibition": "inactive: -169%"}
{"compound": "CC(C)c1ccc(C(=O)NCC2(N3CCOCC3)CCCCC2)cc1", "inhibition": "inactive: -14%"}
{"compound": "COc1ccc(NC2CCN(C(=O)OC(C)(C)C)CC2)cc1", "inhibition": "inactive: -2.68%"}
{"compound": "CN1CCN(CCOC(=O)C(O)(c2ccccc2)c2ccccc2)CC1", "inhibition": "inactive: 7.11%"}
{"compound": "CC(C)c1ccc(NC2CCN(C(=O)OC(C)(C)C)CC2)cc1", "inhibition": "inactive: -0.686%"}
{"compound": "CN(C)c1cccc(C(=O)NCC2(N3CCCCC3)CCCCC2)c1", "inhibition": "inactive: 7.28%"}
{"compound": "COc1ccc(CN(CCCl)CCCl)cc1Cl", "inhibition": "inactive: 32.3%"}
{"compound": "O=C(NCC1(N2CCOCC2)CCCCC1)c1cc(F)c(F)cc1Cl", "inhibition": "inactive: 4.5%"}
{"compound": "COc1cc(OC)c(C(=O)NCC2(N(C)C)CCCCC2)cc1OC", "inhibition": "inactive: 4.29%"}
{"compound": "CCCCn1nnnc1C(c1ccnc2ccccc12)N1CCC(n2c(=O)[nH]c3ccccc32)CC1", "note": "(centres undefined)", "inhibition": "inactive: 0.163%"}
{"compound": "COc1ccc(C(c2nnnn2C2CCCC2)N2CCC(n3c(=O)[nH]c4ccccc43)CC2)cc1", "note": "(centres undefined)", "inhibition": "inactive: -20.2%"}
{"compound": "CCCOc1ccc(C(=O)NCC2(N(C)C)CCCCC2)cc1OC", "inhibition": "inactive: 4.12%"}
{"compound": "Cc1ccc(C(=O)NCC2(N(C)C)CCCCC2)o1", "inhibition": "inactive: -0.202%"}
